Measured values from several laboratories, pooled; numbers as filed in NIAID ChemDB.

Shared fields: cytotoxicity tests; read-out: CC50

CCn is the concentration with n% toxicity to the cells. An empty or dashed field is not shown. a–b is a range or a potency band. Neighbouring rows are from separate reports.

structure,cells,read by,value
CC[C@@]1(O)C(=O)OCc2c1cc1n(c2=O)Cc2cc3c(CN(C)C)c(O)ccc3nc2-1,293.27.2,-,0.03–0.1 µM
CCn1nnc(-c2ccc(OCCC(C)CCN3CCN(c4ccncc4)C3=O)cc2)n1,RD,-,>12.5 µM
CC(=O)OC(C(C)C(C)C(C)(C)O)C1OC12C(O)CC1C3CCC4CC(=O)CCC4C3CCC12CO,HEL,MTT,>50 µg/mL
O=c1ccn([C@H]2C[C@H](F)[C@@H](CO)S2)c(=O)[nH]1,ATH8,-,>80 µM
COc1cc(O)c2c(=O)c3ccccc3n(C)c2c1,OM-10.1,-,0.8 µg/mL
CC(=O)OC(C(C)C(C)C(C)(C)OC(C)=O)C1OC12C(O)CC1C3CCC4CC(=O)CCC4C3CCC12CO,HT-29,MTT,>50 µg/mL
CC(C)N(Cc1cccc(OCCCCCC(=O)OC(=O)O)c1)C(=O)c1ccc(-c2cccc(Br)c2)cc1,HE293,-,>20 µM
C[C@H]1[C@H](O)[C@@H](CO)O[C@H]1n1cc(F)c(=O)[nH]c1=O,RPMI8226,-,67.5 µg/mL
CC(C)=CC1CC([C@@H]2CC[C@]3(C)C4CC[C@H]5C(C)(C)[C@@H](O)CC[C@]5(C)[C@H]4CC[C@@]23C)CO1,L6 cells,MTT,14.7 µM
C[C@H]1[C@@H](O)[C@@H](O)[C@H](O)CN1C,T CELLS,-,>100 µg/mL
Cn1c2ccccc2c(=O)c2ccccc21,OM-10.1,-,16 µg/mL
Nc1c(N=Cc2ccc(C(F)(F)F)cc2)cc2cccnc2c1Cl,BHK-21,MTT,25 µM
C[C@H]1[C@H](O)[C@@H](CO)O[C@H]1n1cc(I)c(=O)[nH]c1=O,RPMI8226,-,74.5 µg/mL
O=C(NCCc1ccccc1)C1=Cc2ccncc2CC1,MA-104,-,<136 µM
COc1ccc(O)c2c(=O)c3ccccc3n(C)c12,OM-10.1,-,16 µg/mL
O=c1ccn([C@H]2C[C@@H](F)[C@@H](CO)S2)c(=O)[nH]1,ATH8,-,>80 µM
CS(=O)(=O)C1(c2ccc(C(=O)NC34CC(c5nc(-c6ccccc6)cs5)(C3)C4)o2)CC1,Primary human hepatocytes,absorbance,12.38 µM
COC1=NC=C[C@H](O)C(O[C@@H]2O[C@H](CO)[C@@H](O)[C@H](O)[C@H]2O)S1,EL-4,sulforhodamine,>100 µg/mL
C[C@H]1[C@H](O)[C@@H](CO)O[C@H]1n1cc(Br)c(N)nc1=O,RPMI8226,-,84.8 µg/mL
C=C(C)C1CC[C@]2(C(=O)O)CC[C@@]3(C)[C@]4(C)CC[C@H]5C(C)(C)[C@@H](OC(=O)/C=C/c6ccc(O)cc6)CC[C@]5(C)[C@H]4CC[C@]3(C)[C@@H]12,L6 cells,MTT,9.3 µM
CC(C)N(Cc1cccc(OCCCCCC(=O)OC(=O)O)c1)C(=O)c1ccc(-c2cccc(O)c2)cc1,HEK 293,-,>20 µM
Nc1nc2c(ncn2COCCO)c(=O)[nH]1,GPE,-,1200 µM
CCOC(=O)/C=C/[C@H](Cc1ccccc1)NC(=O)[C@H](CC(C)C)NC(=O)OCc1ccccc1,HeLa cells,cell count,346 µM
COc1cccc2c1c(=O)c1ccccc1n2C,OM-10.1,-,13 µg/mL
O=c1ccn([C@@H]2S[C@H](CO)C[C@H]2F)c(=O)[nH]1,ATH8,-,>80 µM
CCOC(=O)c1cc(O)c(O)c(O)c1,HT-29,MTS,>200 µM
CCOC(=O)CCCCCOc1cccc(CN(C(=O)c2ccc(-c3cccc(Oc4ccccc4)c3)cc2)C(C)C)c1,BJ,-,13.5–20 µM
Cc1ccc(Nc2nc3ccc(C)cc3s2)c(C)c1,Ava5,MTS,140 µM
CC(C)C[C@@H]1NC(=O)[C@H](Cc2c[nH]c3ccccc23)NC(=O)[C@@H](CCCN)NC(=O)[C@H](CC(=O)NCc2ccccc2)NC(=O)[C@H](C(C)C)NC(=O)[C@@H](CC(C)C)NC1=O,Hep2G,luminescence,50.1 µM
CN1C[C@H](O)[C@@H](O)[C@@H]1CO,T CELLS,-,>100 µg/mL
CS(=O)(=O)C1(c2nsc(C(=O)NC34CC(c5nc(-c6cccc(Cl)c6)cs5)(C3)C4)n2)CC1,Primary human hepatocytes,absorbance,29.65 µM
O=c1[nH]c(=O)n([C@@H]2O[C@H](CO)[C@@H](O)[C@@H]2F)cc1I,RPMI8226,-,7.64 µg/mL
OC[C@@H]1NC[C@@H](O)[C@H]1O,T CELLS,-,>130 µg/mL
CC(CCOc1ccc(-c2nnn(C)n2)cc1)CCN1CCN(c2ccncc2)C1=O,RD,-,>25 µM
CS(=O)(=O)C1(c2ccn(C(=O)NCCC3(c4ncc(-c5ccc(Cl)cc5)s4)CCC3)n2)CC1,Primary human hepatocytes,absorbance,10.83 µM
O=C1N(CCOCCOc2ccc(-c3ccc(Cl)cc3)cc2)CCN1c1ccncc1,RD,-,>25 µM
Nc1ccn([C@@H]2S[C@H](CO)C[C@H]2F)c(=O)n1,ATH8,-,>80 µM
COc1ccccc1CNC(=O)C1=Cc2ccncc2CC1,MA-104,-,<118 µM
CNC(=O)/C=C/[C@H](Cc1ccccc1)NC(=O)[C@H](Cc1ccccc1)NC(=O)OCc1ccccc1,HeLa cells,cell count,376 µM
Cc1ccc2nc(Nc3ccc(OCc4ccccc4)cc3)sc2c1,Ava5,MTS,50 µM
CS(=O)(=O)C1(c2nsc(C(=O)NC34CC(c5nc(-c6ccc(F)cc6)no5)(C3)C4)n2)CC1,Primary human hepatocytes,absorbance,79.8 µM
C[C@H]1[C@H](O)[C@@H](CO)O[C@H]1n1cc(I)c(N)nc1=O,RPMI8226,-,187.6 µg/mL
CS(=O)(=O)C1(c2ccc(C(=O)NC34CC(c5nc(-c6cccc(Cl)c6)cs5)(C3)C4)o2)CC1,Primary human hepatocytes,absorbance,20.66 µM
Cn1c2ccccc2c(=O)c2c(O)c(O)ccc21,OM-10.1,-,7.8 µg/mL
Cc1ccc2nc(Nc3ccc([N+](=O)[O-])cc3)sc2c1,Ava5,MTS,31 µM
CCOC(=O)COc1ccc(CNC(C)C)cc1,RAJI,-,>20 µM
CCOC(=O)/C=C/[C@H](Cc1ccccc1)NC(=O)[C@H](CC(C)C)NC(=O)OC(C)(C)C,HeLa cells,cell count,203 µM
CCC(CCOc1ccc(-c2ccc(Cl)cc2)cc1)CCN1CCN(c2ccncc2)C1=O,RD,-,>25 µM
Cc1cc(C)cc(Nc2nc3ccc(C)cc3s2)c1,Ava5,MTS,60 µM
CC[C@H](C)[C@H](N)[C@H](O)n1nc(C)c2c(Cl)c3cc(OC)ccc3nc21,FS-85,-,>100 µg/mL
Cc1ccnc2c1NC(=O)c1cccnc1N2C1CC1,A72,MTT,>4 µg/mL

The last 5 rows once more:

structure	cells	read by	value
CCOC(=O)/C=C/[C@H](Cc1ccccc1)NC(=O)[C@H](CC(C)C)NC(=O)OC(C)(C)C	HeLa cells	cell count	203 µM
CCC(CCOc1ccc(-c2ccc(Cl)cc2)cc1)CCN1CCN(c2ccncc2)C1=O	RD	-	>25 µM
Cc1cc(C)cc(Nc2nc3ccc(C)cc3s2)c1	Ava5	MTS	60 µM
CC[C@H](C)[C@H](N)[C@H](O)n1nc(C)c2c(Cl)c3cc(OC)ccc3nc21	FS-85	-	>100 µg/mL
Cc1ccnc2c1NC(=O)c1cccnc1N2C1CC1	A72	MTT	>4 µg/mL